Experimental data: PubChem BioAssay AID1259414 (Drosophila RNAi Screening Center, 2018)
The screen tested about 24,000 reagents; this is a random part of those that have a named target and a result. Over the whole deposit, about 1,210 (5%) were called active. 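Inactive calls also include excluded dsRNAs with several or no targets, genes unexpressed in JW18, and well A1, regardless of score.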 Unmarked entries are inactive. A plus sign joins genes that one reagent is predicted to hit.

Aim: 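Host factors increasing or decreasing Wolbachia levels in cultured fly cells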 (primary screen)
Cells: Drosophila JW18 cells infected with Wolbachia
Knock-down reagent: long dsRNA against Drosophila genes, 0.25 µg dsRNA per well of a 384-well plate
Time to read-out: 5 days
Conditions: cells persistently infected with Wolbachia before knock-down; no added drug
Read-out: 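Automated imaging of bacterial rRNA staining divided by host cell count, reported as plate-normalised robust z-score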
Reading the numbers: Wolbachia per cell robust z: higher = more Wolbachia per host cell than the plate typical
Hit rule: 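Active if absolute robust z reaches 1.5 in two or more of three replicates, leaving out multi- or no-target dsRNAs, genes unexpressed in JW18 and A1 wells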

With knock-down of RagA-B (GeneID 41071) [DRSC14450], the screen gave Wolbachia per cell robust z, rep 1 = -0.276 (active); Wolbachia per cell robust z, rep 2 = -2.88; Wolbachia per cell robust z, rep 3 = -1.61.
Against Mrm2 (GeneID 42359) [DRSC14310], the values are Wolbachia per cell robust z, rep 1 = -0.227; Wolbachia per cell robust z, rep 2 = -0.359; Wolbachia per cell robust z, rep 3 = -0.0783.
Mrm2 (GeneID 42359) [DRSC27849] gave Wolbachia per cell robust z, rep 1 = 0.906; Wolbachia per cell robust z, rep 2 = -0.551; Wolbachia per cell robust z, rep 3 = -2.35.
After knock-down of CG12519 + CG32213 + 825-Oak + 1 more [DRSC09615] the results were Wolbachia per cell robust z, rep 1 = -1.56; Wolbachia per cell robust z, rep 2 = -1.72; Wolbachia per cell robust z, rep 3 = -0.894.
Tsp5D (GeneID 31540) [DRSC18380] scored Wolbachia per cell robust z, rep 1 = -1.05; Wolbachia per cell robust z, rep 2 = 0.0345; Wolbachia per cell robust z, rep 3 = 0.0699.
After knock-down of CG10802 (GeneID 31318) [DRSC17762], the record shows Wolbachia per cell robust z, rep 1 = -0.439; Wolbachia per cell robust z, rep 2 = -1.36; Wolbachia per cell robust z, rep 3 = -0.348.
Silencing of CG10802 (GeneID 31318) [DRSC29607] resulted in: Wolbachia per cell robust z, rep 1 = -2.16; Wolbachia per cell robust z, rep 2 = -0.0703; Wolbachia per cell robust z, rep 3 = 1.52.
Silencing of CG17190 (GeneID 42386) [DRSC15184] gave: Wolbachia per cell robust z, rep 1 = -1.52; Wolbachia per cell robust z, rep 2 = 1.29; Wolbachia per cell robust z, rep 3 = 0.553.
Silencing of Trxr2 (GeneID 40475) [DRSC11900] gave: Wolbachia per cell robust z, rep 1 = 0.543; Wolbachia per cell robust z, rep 2 = 0.544; Wolbachia per cell robust z, rep 3 = 1.01.
After knock-down of Trxr2 (GeneID 40475) [DRSC25519] the results were Wolbachia per cell robust z, rep 1 = 0.504; Wolbachia per cell robust z, rep 2 = -0.443; Wolbachia per cell robust z, rep 3 = -0.769.
CG31365 (GeneID 42736) [DRSC15610] gave Wolbachia per cell robust z, rep 1 = 0.338; Wolbachia per cell robust z, rep 2 = -0.0637; Wolbachia per cell robust z, rep 3 = -0.359.
Against CG7387 (GeneID 38915) [DRSC10833], the values are Wolbachia per cell robust z, rep 1 = -0.153; Wolbachia per cell robust z, rep 2 = 0.52; Wolbachia per cell robust z, rep 3 = -0.423.
With knock-down of CG9727 (GeneID 40794) [DRSC12585], the screen gave Wolbachia per cell robust z, rep 1 = -0.555; Wolbachia per cell robust z, rep 2 = -0.711; Wolbachia per cell robust z, rep 3 = -0.363.
Knock-down of CG9727 (GeneID 40794) [DRSC28868] came out at: Wolbachia per cell robust z, rep 1 = 0.0267; Wolbachia per cell robust z, rep 2 = -0.449; Wolbachia per cell robust z, rep 3 = -0.839.
Against CG15458 (GeneID 50124) [DRSC20529], the values are Wolbachia per cell robust z, rep 1 = 0.175; Wolbachia per cell robust z, rep 2 = 0.236; Wolbachia per cell robust z, rep 3 = -0.197.
Depletion of dpr1 (GeneID 2768858) [DRSC06399] came out at: Wolbachia per cell robust z, rep 1 = 0.429; Wolbachia per cell robust z, rep 2 = 0.73; Wolbachia per cell robust z, rep 3 = 0.78.

Limited to “Wolbachia per cell robust z, rep 3”, for 2 of the entries above:
CG9727 (GeneID 40794) [DRSC28868]	-0.839
CG15458 (GeneID 50124) [DRSC20529]	-0.197

The list goes on.
For CG11030 (GeneID 33805) [DRSC02120], the values are Wolbachia per cell robust z, rep 1 = 1.38; Wolbachia per cell robust z, rep 2 = 0.921; Wolbachia per cell robust z, rep 3 = -0.0889.
CG11030 (GeneID 33805) [DRSC23703] showed Wolbachia per cell robust z, rep 1 = 0.367; Wolbachia per cell robust z, rep 2 = 1.23; Wolbachia per cell robust z, rep 3 = 0.998.
Knock-down of Inos (GeneID 35671) [DRSC07655] gave: Wolbachia per cell robust z, rep 1 = -1.85 (active); Wolbachia per cell robust z, rep 2 = -2.35; Wolbachia per cell robust z, rep 3 = 1.59.
Inos (GeneID 35671) [DRSC27019] gave Wolbachia per cell robust z, rep 1 = -1.9; Wolbachia per cell robust z, rep 2 = -0.699; Wolbachia per cell robust z, rep 3 = 0.29.
With knock-down of brv1 (GeneID 40116) [DRSC11076], the record shows Wolbachia per cell robust z, rep 1 = -1.79 (active); Wolbachia per cell robust z, rep 2 = -1.8; Wolbachia per cell robust z, rep 3 = 0.257.
Against Osi12 (GeneID 40766) [DRSC12177], the values are Wolbachia per cell robust z, rep 1 = -4.23; Wolbachia per cell robust z, rep 2 = 0.253; Wolbachia per cell robust z, rep 3 = 0.563.
Depletion of CG32305 (GeneID 317967) [DRSC08614] resulted in: Wolbachia per cell robust z, rep 1 = 0.622; Wolbachia per cell robust z, rep 2 = 0.16; Wolbachia per cell robust z, rep 3 = -0.24.
With knock-down of CG32305 (GeneID 317967) [DRSC29854], the record shows Wolbachia per cell robust z, rep 1 = -1.13; Wolbachia per cell robust z, rep 2 = -1.22; Wolbachia per cell robust z, rep 3 = -0.0128.
